Anti-infective test results gathered from many reports (values: NIAID ChemDB through PubChem).

All rows: tests in culture; species: HIV-1; cell line: CEM; endpoint: EC90

Two numbers with a dash give a range or band.

structure,strain or isolate,method,value
Nc1ccc(S(=O)(=O)N(CC2CCCC2)C[C@@H](O)[C@H](Cc2ccccc2)NC(=O)O[C@@H]2CCOC2)c(N)c1,IIIB,p24,≤0.1 µM
CC(C)CN(C[C@@H](O)[C@H](Cc1ccccc1)NC(=O)[C@H](CC(N)=O)NC(=O)c1ccc2ccccc2n1)S(=O)(=O)c1cccc2nonc12,IIIB,p24,<0.1 µM
Nc1ccc(S(=O)(=O)N(CC2CCCC2)C[C@@H](O)[C@H](Cc2ccccc2)NC(=O)O[C@@H]2CCOC2)cc1,IIIB,p24,≤0.1 µM
Cc1cc(CS(=O)(=O)N(CC2CCCC2)C[C@@H](O)CN(CCc2ccccc2)C(=O)c2ccccc2)no1,IIIB,p24,1 µM
O=C(N[C@@H](Cc1ccccc1)[C@H](O)CN(CC1CCCC1)S(=O)(=O)c1ccccc1)O[C@H]1CCOC1,IIIB,p24,≤0.1 µM
CC(C)CN(C(=O)C(=O)C(=O)N(CC(C)C)S(=O)(=O)c1ccc(O)cc1)S(=O)(=O)c1ccccc1,IIIB,p24,1 µM
CC(C)(C)NC(=O)[C@@H]1CN(Cc2cccnc2)CCN1C[C@H](O)[C@@H](CSc1ccccc1)NC(=O)c1cccc2ncccc12,SN 123,cytopathic effect / XTT,0.564 µM
CC(C)CN(C[C@@H](O)[C@H](Cc1ccccc1)NC(=O)[C@H](CC(N)=O)NC(=O)c1ccc2ccccc2n1)S(=O)(=O)c1ccc(F)cc1,IIIB,p24,<0.1 µM
O=C(N[C@@H](Cc1ccccc1)[C@H](O)CN(CC1CCCC1)S(=O)(=O)c1ccc(F)cc1)O[C@@H]1CCOC1,IIIB,p24,0.101–1 µM
COc1ccc(S(=O)(=O)N(CC(O)CN(CCc2ccccc2)S(=O)(=O)c2ccccc2)CC2CCCC2)cc1,IIIB,p24,1 µM
CC(C)CN(C[C@@H](O)[C@H](Cc1ccccc1)NC(=O)[C@H](CC(N)=O)NC(=O)c1ccc2ccccc2n1)S(=O)(=O)N(C)C,IIIB,p24,<0.1 µM
CC(C)CN(CC(O)CNC1c2ccccc2CC1O)S(=O)(=O)c1ccccc1,IIIB,p24,1 µM
O=C(N[C@@H](Cc1ccccc1)[C@H](O)CN(CC1CCCC1)S(=O)(=O)c1ccc(F)cc1)O[C@@H]1CCOC1,IIIB,p24,0.101–1 µM
CC(=O)Nc1nc(C)c(S(=O)(=O)N(CC2CCCC2)C[C@@H](O)CN(CCc2ccccc2)C(=O)c2ccccc2)s1,IIIB,p24,1 µM
CC(C)CN(C[C@@H](O)[C@H](Cc1ccccc1)NC(=O)[C@H](CC(N)=O)NC(=O)c1ccc2ccccc2n1)S(=O)(=O)N(C)C,IIIB,p24,≤0.1 µM

The last 2 rows once more:

structure	strain or isolate	method	value
CC(=O)Nc1nc(C)c(S(=O)(=O)N(CC2CCCC2)C[C@@H](O)CN(CCc2ccccc2)C(=O)c2ccccc2)s1	IIIB	p24	1 µM
CC(C)CN(C[C@@H](O)[C@H](Cc1ccccc1)NC(=O)[C@H](CC(N)=O)NC(=O)c1ccc2ccccc2n1)S(=O)(=O)N(C)C	IIIB	p24	≤0.1 µM

Conditions beyond the fields shown may differ between rows. ECn is the concentration giving n% inhibition of infection, replication or growth.